# Laboratory results taken from PubChem BioAssay AID602276 (University of Pittsburgh Molecular Library Screening Center, 2012).
# This is a selection; strong and weak results do not stand in their true shares. The source made the active and inactive calls.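 How the source made its calls: active means inhibition at or above 50% at 10 µM; inactive means inhibition below 50%.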
# Test: blockers of RIG-like receptor reporter activation – cell-based, Sendai virus stimulus, luciferase, 10K MLSCN set, TLR/RLR signaling modifier project, primary screen (AID 602276);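 further: firefly luciferase from ISG56 promoter only with Renilla not read in this screen; 0% = Sendai virus plus DMSO and 100% = medium plus DMSO without virus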
# Settings: HEK293 RL24 IRF3 luciferase reporter, at 10 µM, hits give high values
row,Compound,inhibition
1,Fc1ccccc1NC1CCN(Cc2ccccc2)CC1,inactive: 19.8%
